Anti-infective test results gathered from many reports (values: NIAID ChemDB through PubChem).

Shared fields: whole-cell or culture tests; agent: HIV-2; read-out: EC50

ECn is the concentration giving n% inhibition of infection, replication or growth.

compound | mutations | method | cells | strain | value
COc1ccc(Cn2cc(CSc3nc(Cc4cccc5ccccc45)cc(=O)[nH]3)nn2)cc1 |  | MTT |  | ROD | >68.53 µM
CC(C)(C)OC(=O)N[C@@H](Cc1ccccc1)[C@H](O)CNC[C@@H](O)[C@H](Cc1ccc(OCC(=O)N2CCOCC2)cc1)NC(=O)OC(C)(C)C |  | cytopathic effect / XTT | CEM + CEM-SS | CBL-20 | 0.07 µM
Cc1ccccc1Cn1cc(CSc2nc(Cc3cccc4ccccc34)c(C)c(=O)[nH]2)nn1 |  | MTT |  | ROD | >24.01 µM
Cc1ccccc1NC(=O)CSc1sc(N)nc1-c1ccc(Br)cc1Br |  | MTT | MT-4 | ROD | >23.96 µM
Cc1cn([C@H]2C=C[C@@H](COP3(=O)OCc4cc5ccccc5cc4O3)O2)c(=O)[nH]c1=O |  | syncytia | CEM + CEM TK- | ROD | 7 µM
NC(=O)c1ccc(Cn2cc(CSc3nc(Cc4c(Cl)cccc4Cl)c(I)c(=O)[nH]3)nn2)cc1 |  | MTT |  | ROD | >94.13 µM
O=c1[nH]c(=O)n(/C=C/P(=O)(O)O)cc1F |  |  | CEM + CEM-SS | ROD | >200 µM
C[C@H](CC1CNC2C1OC(N)CN2N)OCP(=O)(O)O |  | cytopathic effect / MTT | MT-4 | ROD | >100 µg/mL
N#Cc1ccccc1Cn1cc(CSc2nc(Cc3cccc4ccccc34)c(I)c(=O)[nH]2)nn1 |  | MTT |  | ROD | >75.93 µM
Cc1cn(/C=C\P(=O)(O)O)c(=O)[nH]c1=O |  |  | CEM + CEM-SS | ROD | >200 µM
CCCCNc1nc(N)nc2c1ncn2CCOCP(=O)(O)O |  | cytopathic effect / MTT | CEM | ROD | 1.4 µg/mL
CC(=O)Nc1cnc(Oc2c(C)cc(C)cc2C)nc1Nc1ccc(C#N)cc1 |  | MTT | MT-4 | ROD | >323 µM
O=c1[nH]c(=O)n(/C=C/P(=O)(O)O)cc1I |  |  | CEM + CEM-SS | ROD | >200 µM
Cc1cc(C=O)cc(C)c1Oc1ncc(NC(=O)C(F)(F)F)c(Nc2ccc(C#N)cc2)n1 |  | MTT | MT-4 | ROD | >216 µM
CC(=O)c1ccc(C)cc1NC(C(N)=O)c1c(Cl)cccc1Cl |  | cytopathic effect / MTT | MT-4 | ROD | 85.5 µM
Cc1cccc2c1OP(=O)(OC[C@@H]1C=C[C@H](n3cc(C)c(=O)[nH]c3=O)O1)OC2 |  | syncytia | CEM + CEM/O | ROD | 0.19 µM
CCc1c(C(=O)c2cc(C)cc(C)c2)n(CC2CC=CC2)c(=O)[nH]c1=O |  | cytopathic effect / XTT | CEM + CEM-SS | ROD | 0.17 µM
CCOP(=O)(/C=C\n1cc(C)c(=O)[nH]c1=O)OCC |  |  | CEM + CEM-SS | ROD | >200 µM
CCCCc1c(Cc2cccc3ccccc23)nc(N(CC)CC)[nH]c1=O |  | MTT | MT-4 | ROD | ≥63.82 µM
Cc1cc(C#N)cc(C)c1Oc1ncc([N+](=O)[O-])c(Nc2ccc(C#N)cc2)n1 |  | MTT | MT-4 | ROD | ≥274 µM
N#Cc1ccccc1Cn1cc(CSc2nc(Cc3cccc4ccccc34)cc(=O)[nH]2)nn1 |  | MTT |  | ROD | >105 µM
CCN(CC)c1nc(Cc2cccc3ccccc23)c(C)c(=O)[nH]1 |  | MTT | MT-4 | ROD | >388.9 µM
C[C@H](C[n+]1c[nH]c2c(NCCCCCCCC3CCCCC3)nc(N)nc21)OCP(=O)(O)O |  | cytopathic effect / MTT | CEM | ROD | 13 ± 6 µg/mL
CCOCn1c(Cc2ccccc2)c(C(C)C)c(=O)[nH]c1=O | RT-S102L E219D | cytopathic effect / MTT | MT-4 | EHO | 127.8 µM
CCc1c(Cc2cccc3ccccc23)nc(N(CC)CC)[nH]c1=O |  | MTT | MT-4 | ROD | >3.79 µM
CC(C)Nc1cccnc1N1CCN(C(=O)c2cc3cc(NS(C)(=O)=O)ccc3[nH]2)CC1 |  | cytopathic effect / MTT | MT-4 | EHO | 2.1 µM
C[C@H](C[n+]1c[nH]c2c(N(C)C)nc(N)nc21)OCP(=O)(O)O |  | cytopathic effect / MTT | MT-4 | ROD | 4.2 ± 2.8 µg/mL
Cc1cn([C@H]2C[C@H](N=[N+]=[N-])[C@@H](CO)O2)c(=O)[nH]c1=O |  | ELISA | PBMC | 2298 | 0.014 µM
Cc1c(Cc2cccc3ccccc23)nc(NC(C)C)[nH]c1=O |  | MTT | MT-4 | ROD | >54.33 µM
Cc1cn([C@H]2C[C@H](N=[N+]=[N-])[C@@H](CO)O2)c(=O)[nH]c1=O |  | RT activity | CEM + CEM-SS | ROD | 0.003 µM
CCOP(=O)(/C=C\n1ccc(N)nc1=O)OCC |  |  | CEM + CEM-SS | ROD | >200 µM
Nc1nc(-c2ccc(Br)cc2Br)c(SCC(=O)Nc2ccccc2Br)s1 |  | MTT | MT-4 | ROD | >33.18 µM
CC(=O)Nc1cnc(Oc2c(Br)cc(Br)cc2Br)nc1Nc1ccc(C#N)cc1 |  | MTT | MT-4 | ROD | >119 µM
O=c1[nH]c(=O)n(/C=C/P(=O)(O)O)cc1Br |  |  | CEM + CEM-SS | ROD | >200 µM
CCCCNc1nc(N)nc2c1[nH]c[n+]2C[C@@H](C)OCP(=O)(O)O |  | cytopathic effect / MTT | CEM | ROD | 10 µg/mL
Cc1cc(C)c(Oc2ncc(N)c(Nc3ccc(C#N)cc3)n2)c(C)c1 |  | MTT | MT-4 | ROD | >10.45 µM
CCOP(=O)(/C=C\n1ccc(=O)[nH]c1=O)OCC |  |  | CEM + CEM-SS | ROD | >200 µM
CCc1c(Cc2cccc3ccccc23)nc(N)[nH]c1=O |  | MTT | MT-4 | ROD | >91.82 µM
Cc1cn([C@H]2C=C[C@@H](COP3(=O)OCc4c(ccc5ccccc45)O3)O2)c(=O)[nH]c1=O |  | syncytia | CEM + CEM/O | ROD | 0.14 µM
N#Cc1ccc(Nc2nc(Oc3c(Br)cc(Br)cc3Br)ncc2N)cc1 |  | MTT | MT-4 | ROD | >37.77 µM
Nc1nc(-c2ccc(Br)cc2Br)c(SCC(=O)Nc2ccc(Cl)cc2Cl)s1 |  | MTT | MT-4 | ROD | >20.73 µM
N#Cc1ccc(Nc2nc(Oc3c(Cl)cc(Cl)cc3Cl)ncc2[N+](=O)[O-])cc1 |  | MTT | MT-4 | ROD | >25.2 µM
Nc1ccccc1NC(=O)CSc1sc(Cl)nc1-c1ccc(Br)cc1Br |  | MTT | MT-4 | ROD | >109 µM

Again, the opening 3 rows:

COc1ccc(Cn2cc(CSc3nc(Cc4cccc5ccccc45)cc(=O)[nH]3)nn2)cc1 ; method: MTT ; strain: ROD ; value: >68.53 µM
CC(C)(C)OC(=O)N[C@@H](Cc1ccccc1)[C@H](O)CNC[C@@H](O)[C@H](Cc1ccc(OCC(=O)N2CCOCC2)cc1)NC(=O)OC(C)(C)C ; method: cytopathic effect / XTT ; cells: CEM + CEM-SS ; strain: CBL-20 ; value: 0.07 µM
Cc1ccccc1Cn1cc(CSc2nc(Cc3cccc4ccccc34)c(C)c(=O)[nH]2)nn1 ; method: MTT ; strain: ROD ; value: >24.01 µM

An empty or dashed field is not shown. Neighbouring rows are from separate reports.